Measured values from several laboratories, pooled; numbers as filed in NIAID ChemDB.

All rows: tests in culture; agent: Aspergillus fumigatus; measure: MIC80

MIC50, MIC90 and the like: level of inhibition, or share of isolates inhibited.

SMILES | strain | value
COc1c(O)cc2c(=O)c3ccccc3oc2c1OC |  | 62 µg/mL
Cc1ccc(/C=C2\SC(=O)N(CC(O)(Cn3nccn3)c3ccc(F)cc3F)C2=O)c(C)c1 |  | >100 µg/mL
CCCCN(Cc1cn(Cc2cccc(C#N)c2)nn1)CC(O)(Cn1cncn1)c1ccc(F)cc1F |  | >64 µg/mL
CN(CCCOc1ccccc1)CC(O)(Cn1cncn1)c1ccc(F)cc1F |  | >159 µM
Fc1ccc(Cn2cc(Cn3ccnc3)c3ccccc32)cc1 | AF980003 | 13 µg/mL
C[C@@H](n1cc2cc(Cl)ccc2n1)[C@](O)(Cn1cncn1)c1ccc(F)cc1F | ATCC 16424 | 0.25 µg/mL
COc1c(O)ccc2c(=O)c3ccccc3oc12 |  | 62 µg/mL
CCCCN(Cc1cn(Cc2ccc(Br)cc2)nn1)CC(O)(Cn1cncn1)c1ccc(F)cc1F |  | >64 µg/mL
CN(CCOc1ccc(CC2SC(=O)N(CC(O)(Cn3nccn3)c3ccc(F)cc3F)C2=O)cc1)c1ccccn1 |  | >100 µg/mL
Cc1c(Cn2ccnc2)c2ccccc2n1Cc1ccc(Cl)cc1 | AF980003 | 19 µg/mL
O=C1S/C(=C\c2ccccn2)C(=O)N1CC(O)(Cn1nccn1)c1ccc(F)cc1F |  | >100 µg/mL
CCCCN(Cc1cn(Cc2ccccc2F)nn1)CC(O)(Cn1cncn1)c1ccc(F)cc1F |  | >64 µg/mL
CCCC(CC(=O)O)c1cc2c(c3c1OC(C)(C)C=C3)O[C@H](C)[C@H](C)C2=O | CBS 113.26 | 2 µg/mL
CCC(C)n1ncn(-c2ccc(N3CCN(c4ccc(OC[C@H]5CO[C@](Cn6cncn6)(c6ccc(Cl)cc6Cl)O5)cc4)CC3)cc2)c1=O |  | 2.83 µM
C[C@@H](n1cc2cc(F)ccc2n1)[C@](O)(Cn1cncn1)c1ccc(F)cc1F | ATCC 16424 | 0.25 µg/mL
OC(Cn1cncn1)(Cn1cncn1)c1ccc(F)cc1F |  | >100 µg/mL
COc1c(O)cc2oc3ccccc3c(=O)c2c1O |  | 16 µg/mL
Cc1c(C(C)n2ccnc2)c2ccccc2n1Cc1ccc(Cl)cc1Cl | AF980003 | >100 µg/mL
CCCCN(Cc1cn(Cc2c(Cl)cccc2Cl)nn1)CC(O)(Cn1cncn1)c1ccc(F)cc1F |  | >64 µg/mL
C[C@@H](n1cc2cc(Br)ccc2n1)[C@](O)(Cn1cncn1)c1ccc(F)cc1F | ATCC 16424 | 0.25 µg/mL
CCCCN(Cc1cn(Cc2ccc(Cl)cc2)nn1)CC(O)(Cn1cncn1)c1ccc(F)cc1F |  | >64 µg/mL
Clc1ccc(Cn2cc(Cn3ccnc3)c3ccccc32)c(Cl)c1 | AF980003 | 20 µg/mL
O=c1c2ccccc2oc2ccc(O)cc12 | CBS 113.26 | 31 µg/mL
CCCCN(Cc1cn(Cc2ccc(F)cc2)nn1)CC(O)(Cn1cncn1)c1ccc(F)cc1F |  | >64 µg/mL
COc1cc(O)c2c(=O)c3cccc(O)c3oc2c1 | CBS 113.26 | 31 µg/mL
CCCCN(Cc1cn(Cc2ccccc2Br)nn1)CC(O)(Cn1cncn1)c1ccc(F)cc1F |  | >64 µg/mL
Fc1ccccc1Cn1cc(Cn2ccnc2)c2cc(Br)ccc21 | AF980003 | >100 µg/mL
O=c1c2ccccc2oc2c(O)cccc12 | CBS 113.26 | 31 µg/mL
Clc1ccc(Cn2cc(Cn3ccnc3)c3cc(Br)ccc32)cc1 | AF980003 | >100 µg/mL
CC1(C)C=Cc2ccc3c(=O)c4c(O)cccc4oc3c2O1 |  | >250 µg/mL
CCCCN(Cc1cn(Cc2cccc(Cl)c2)nn1)CC(O)(Cn1cncn1)c1ccc(F)cc1F |  | >64 µg/mL
OC(CN=C1CCN(CCCCOc2ccccc2)CC1)(Cn1cncn1)c1ccc(F)cc1F |  | >132 µM
O=C1S/C(=C\c2ccc(Br)cc2)C(=O)N1CC(O)(Cn1nccn1)c1ccc(F)cc1F |  | >100 µg/mL
Cc1nn([C@H](C)[C@](O)(Cn2cncn2)c2ccc(F)cc2F)c2cccc(F)c12 | ATCC 16424 | 16 µg/mL
COc1cc2oc3ccccc3c(=O)c2c(OC)c1OC |  | 62 µg/mL
CCCC(CC(=O)O)c1c2c(c(O)c3c1O[C@@H](C)[C@@H](C)C3=O)C=CC(C)(C)O2 | CBS 113.26 | >250 µg/mL
OC(CN1CCCN(CCCCCOc2ccccc2)C1)(Cn1cncn1)c1ccc(F)cc1F |  | >132 µM
O=C1S/C(=C\c2ccc(Cl)cc2Cl)C(=O)N1CC(O)(Cn1nccn1)c1ccc(F)cc1F |  | >100 µg/mL
CC(c1cn(Cc2ccc(F)cc2F)c2ccccc12)n1ccnc1 | AF980003 | >100 µg/mL

Repeating the first 4 entries:

COc1c(O)cc2c(=O)c3ccccc3oc2c1OC ; value: 62 µg/mL
Cc1ccc(/C=C2\SC(=O)N(CC(O)(Cn3nccn3)c3ccc(F)cc3F)C2=O)c(C)c1 ; value: >100 µg/mL
CCCCN(Cc1cn(Cc2cccc(C#N)c2)nn1)CC(O)(Cn1cncn1)c1ccc(F)cc1F ; value: >64 µg/mL
CN(CCCOc1ccccc1)CC(O)(Cn1cncn1)c1ccc(F)cc1F ; value: >159 µM

Blank or dashed fields: not listed here. Lines come from different laboratories, so protocols vary.